Assay [1] addresses T1, Xcc NAMPT quadruple mutant (Xanthomonas campestris pv. campestris, UniProt A0A0H2X5R2, H175F/I224F/I332F/V291F). Nature of the assay: Determination of IC50 value for FK866.
The target of assay [2] is T1, Xcc NAMPT quadruple mutant. In words: Isothermal titration calorimetry (ITC). In general terms: ITC needs no label: the signal is the heat of the interaction.

Amino acid sequences for entries named in this document (tags omitted).
UniProt A0A0H2X5R2, whole entry H175F/I224F/V291F/I332F: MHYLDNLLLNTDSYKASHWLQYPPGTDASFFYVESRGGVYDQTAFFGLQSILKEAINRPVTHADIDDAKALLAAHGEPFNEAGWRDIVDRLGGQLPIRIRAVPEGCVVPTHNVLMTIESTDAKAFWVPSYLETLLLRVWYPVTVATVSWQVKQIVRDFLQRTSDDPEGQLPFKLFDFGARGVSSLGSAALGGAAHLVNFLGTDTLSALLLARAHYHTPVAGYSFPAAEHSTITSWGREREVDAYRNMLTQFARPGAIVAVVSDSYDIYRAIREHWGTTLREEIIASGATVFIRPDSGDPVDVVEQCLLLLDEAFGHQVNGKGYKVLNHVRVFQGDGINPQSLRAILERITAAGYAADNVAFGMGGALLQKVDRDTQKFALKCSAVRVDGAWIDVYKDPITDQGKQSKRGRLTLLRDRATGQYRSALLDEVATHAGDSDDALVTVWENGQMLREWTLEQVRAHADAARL

The values that follow come from paper PMC10907753 (Communications Biology, 2024).

Molecules are shown by their SMILES.

For `O=C(/C=C/c1cccnc1)NCCCCC1CCN(C(=O)c2ccccc2)CC1` [FK866], the half-inhibitory concentration (IC50) (commonly the midpoint of a concentration-inhibition curve) in assay [1] (3.5 nM enzyme, 15 μM NAM, 50 μM PRPP, 2.5 mM ATP) came out at 0.154 µM. In addition, in assay [1] (quadruple mutant vs wild-type), the “IC50 fold higher than that of the wild-type enzyme” value is listed as “more than 600 fold”. The equilibrium dissociation constant (Kd) (commonly a measure of binding affinity in units of concentration) in assay [2] (ITC, 1 mM FK866 into 50 μM mutant, one set of sites model) came to 6.47 µM. For the same molecule, the “Kd fold greater than wild-type” value in assay [2] (quadruple mutant vs wild-type) is listed as “about 78 fold”.
